Pooled drug test results. Numbers come from NIAID ChemDB, via PubChem.

All rows: growth or infection tests; species: HIV-1; read-out: fold resistance

Conditions beyond the fields shown may differ between rows. Fold resistance: result on the changed form divided by that on wild type. Blank or dashed fields: not listed here.

smiles	strain or isolate	mutations	cell line	method	value
Cc1occc1C(=S)Nc1ccc(Cl)c(/C=N/OC(C)(C)C)c1	NL4-3	RT-L100I	CEM + CEM-SS	cytopathic effect / XTT	27.5
C=CCSc1cc(NC(=S)OC(C)C)ccc1Cl		RT-Y181C	CEM	syncytia	113
Cc1occc1C(=S)Nc1ccc(Cl)c(C(=O)OC(C)C)c1	NL4-3	RT-V108I	CEM + CEM-SS	cytopathic effect / XTT	3
CCc1ccc(-n2c(C)nnc2SCC(=O)Nc2ccc(C)cc2Cl)cc1	NL4-3	RT-K103N Y181C	HeLa + HeLa-JC53	luciferase	300
Cc1cc(Br)ccc1C(=O)N[C@@H](Cc1ccccc1)[C@H](O)CN(CC(C)C)S(=O)(=O)c1ccc2nc(N)oc2c1	LAI	PR-L010F M046I M071V I084V	MT-4	cytopathic effect / MTT	13.5
C/C=C\COc1cc(NC(=S)OC(C)C)ccc1Cl	IIIB	RT-K101E	CEM		8.3
C[C@@H]1CCO[C@H]2Cn3cc(C(=O)NCc4ccc(F)cc4F)c(=O)c(O)c3C(=O)N12		V75I	TZM-bl	luciferase / luminescence	0.5
CC(C)OC(=O)c1cc(NC(=S)OC(C)(C)C)ccc1Cl		RT-E138K	CEM	syncytia	9.16
Nc1nc(=O)n([C@H]2C=C[C@@H](CO)O2)cc1F	XM-ABC-resistant	RT-K65R L74V M184V Y115F	MT-4	p24	10
Nc1ncnc2c1ncn2[C@H]1C=C[C@@H](OCP(=O)(O)O)O1		RT-M184V	MT-2	cytopathic effect	0.8
COc1ccc(NC(=O)C2=C(C)OCCS2)cc1OCC=C(Cl)Cl	Pyridone-resistant (RT Y181C)	RT-Y181C	CEM	syncytia	2.5
CCc1nnc(SCC(=O)Nc2ccc(C)cc2Br)n1-c1ccc(C)cc1	NL4-3	RT-K103N Y181C	HeLa + HeLa-JC53	luciferase	25000
CN(C)C1=C(C#N)/C(=C2/C(C#N)=C(N(C)C)N(c3ccc([N+](=O)[O-])cc3)c3c2n(C)c2ccccc32)c2c(c3ccccc3n2C)N1c1ccc([N+](=O)[O-])cc1	HEPT-resistant (RT P236L)	RT-P236L	CEM + CEM-SS	cytopathic effect / XTT	1.18
CCC(CC)OC(=O)c1cc(NC(=S)OC(C)C)ccc1Cl		RT-Y181C	CEM	syncytia	100
Cc1ccc(C2CC2)c(-c2cc(F)c3c(c2C)CCCO3)c1[C@H](OC1CC1)C(=O)O	NL4-3	INSTI-resistant (IN-N155H)	MT-4	luminescence	1
Cc1sccc1C(=O)Nc1ccc(Cl)c(OCC=C(Cl)Cl)c1	TSAO-m3T-resistant (RT E138K)	RT-E138K	CEM	syncytia	10.6
Cc1cc(S(N)(=O)=O)ccc1NC(=O)COc1ccc(Cl)cc1C(=O)c1cc(Cl)cc(C#N)c1	HXB2	RT-V106I	HeLa + HELA CD4+	β-galactosidase	~1
Nc1nc(NC2CC2)c2ncn([C@H]3C=C[C@@H](CO)C3)c2n1	XM-T69SSS	RT-T69SSS L210W T215Y	PBMC	p24	7.6
Cc1occc1C(=S)Nc1ccc(Cl)c(C(=O)OCC2CC2)c1	NL4-3	RT-V106A	CEM + CEM-SS	cytopathic effect / XTT	22
C/C=C\COc1cc(NC(=S)OC(C)C)ccc1OC		RT-V106A	CEM	syncytia	50
O=C(O[C@@H]1[C@H](OC(=O)c2ccccc2)[C@@H](CO)O[C@H]1n1cnc2c(N(C(=O)c3ccccc3)C(=O)c3ccccc3)ncnc21)c1ccccc1	NL4-3	Q184H	HeLaP4	β-galactosidase	0.88
Cc1cc(C)cc(C(=O)c2cc(Cl)ccc2OCC(=O)Nc2ccc(S(N)(=O)=O)cc2C)c1	HXB2 (RT-K103N Y181C) Recombinant	RT-K103N Y181C	HeLa + HELA CD4+	β-galactosidase	~1
CCC(C)OC(=S)Nc1ccc(Cl)c(C(=O)OC(C)(C)C)c1		RT-E138K	CEM	syncytia	4.01
CCCc1c(OC2CCCCC2)c2cc(Cl)ccc2[nH]c1=O	NNRTI-resistant (RT K103N Y181C)	RT-K103N Y181C	HeLa + HeLa-MAGI	β-galactosidase	>62.5
CNc1nc2ccc(S(=O)(=O)N(CC(C)C)C[C@@H](O)[C@H](Cc3ccccc3)NC(=O)c3cccc(O)c3C)cc2o1	LAI	PR-L010F M046I M071V I084V	MT-4	cytopathic effect / MTT	224
Cc1cc(C)cc(Sc2c(C(C)C)c(=O)[nH]c(=S)n2COCCO)c1	IIIB	RT-Y181I	CEM	syncytia	1670
CC=CCOc1cc(NC(=S)c2ccoc2C)ccc1OC	NL4-3	RT-V108I	CEM + CEM-SS	cytopathic effect / XTT	3
CCc1c(Cc2cc(C)cc(C)c2)n(COCCO)c(=O)[nH]c1=O	IIIB TIBO R82913-resistant (RT K103N)	RT-K103N	CEM	syncytia	71.4
CC(C)OC(=S)Nc1ccc(Cl)c(C(=O)OC(C(C)C)C(C)C)c1		RT-V106A	CEM	syncytia	≥14.3
Cc1c(OCC2CCC2)c2cc(F)ccc2[nH]c1=O	NNRTI-resistant (RT Y181C)	RT-Y181C	HeLa + HeLa-MAGI	β-galactosidase	>3.28
Cc1cc(C#N)cc(C(=O)c2cc(Cl)ccc2OCC(=O)Nc2ccc(S(N)(=O)=O)cc2C)c1	HXB2	RT-L100I	HeLa + HELA CD4+	β-galactosidase	~1
CCOCn1c(Sc2cc(C)cc(C)c2)c(CC)c(=O)[nH]c1=S	IIIB	RT-E138K	CEM	syncytia	10
CCOC(=O)COc1cc(NC(=S)OC(C)C)ccc1Cl		RT-L100I	CEM	syncytia	12.8
COc1ccc(NC(=S)c2ccoc2C)cc1OCC=C(Cl)Cl	TIBO R82913-resistant (RT K103N)	RT-K103N	CEM	syncytia	133
CC(C)CN(C[C@@H](O)[C@H](Cc1ccccc1)NC(=O)OCc1cccnc1)S(=O)(=O)c1ccc2nc(N)oc2c1	LAI	PR-L010F M046I M071V I084V	MT-4	cytopathic effect / MTT	50
CC(C)OC(=O)Nc1ccc(Cl)c(C(=O)OC(C)C)c1		RT-V106A	CEM	syncytia	>1.82
Cc1cc(NS(=O)(=O)CC2CCCCC2)c(C)c(C(OC(C)(C)C)C(=O)O)c1-c1ccc2c(c1)CCCO2	NL4-3	PI-resistant ARP-11803 (L33F/E34T/K43T/G48V/I54S/L63P/A71V/V82A)	MT-4	luminescence	1
CSC(=Nc1ccc(Cl)c(C(=O)OC(C)C)c1)OC(C)C		RT-V106A	CEM	syncytia	>1
CC(C)c1c(Sc2ccccc2)n(COCc2ccccc2)c(=S)[nH]c1=O	IIIB TIBO R82913-resistant (RT K103N)	RT-K103N	CEM	syncytia	375
CC(C)OC(=S)Nc1ccc(Cl)c(C(=O)OCC2CC2)c1		RT-E138K	CEM	syncytia	15
C/C(Cl)=C/COc1cc(NC(=O)c2ccoc2C)ccc1Cl	HEPT-resistant (RT Y188H)	RT-Y188H	CEM	syncytia	222
N#Cc1cc(Cl)cc(Oc2c(Br)ccc(CC(=O)Nc3ccc(S(N)(=O)=O)cc3Cl)c2F)c1		Y181C	MT-4		1
CCCCOC(=S)Nc1ccc(Cl)c(C(=O)OC(C)C)c1		RT-E138K	CEM	syncytia	41.7
Cc1ccc(-n2c(C)nnc2SCC(=O)Nc2ccc(C(C)C)cc2Br)cc1	NL4-3	RT-K103N Y181C	HeLa + HeLa-JC53	luciferase	>71
C=C(Cl)COc1cc(NC(=S)c2ccsc2C)ccc1C#N	Pyridone-resistant (RT Y181C)	RT-Y181C	CEM	syncytia	14.7
CC(C)OC(=S)Nc1ccc(Cl)c(C(=O)OC2(C)COC2)c1		RT-E138K	CEM	syncytia	14
Cc1nc2sccn2c1C(=O)N[C@@H](Cc1ccccc1)[C@H](O)CN(CC(C)C)S(=O)(=O)c1ccc2nc(N)oc2c1	LAI	PR-L010F M046I M071V I084V	MT-4	cytopathic effect / MTT	14
C=CCO/N=C/c1cc(NC(=S)c2ccoc2C)ccc1Cl	NL4-3	RT-V108I	CEM + CEM-SS	cytopathic effect / XTT	14.3
Cc1ccc(-n2c(C)nnc2SCC(=O)Nc2ccccc2I)cc1	NL4-3	RT-K103N Y181C	HeLa + HeLa-JC53	luciferase	440
C=CCOc1cc(NC(=S)OC(C)C)ccc1Cl		RT-Y181C	CEM	syncytia	14.3
CC(C)OC(=O)c1cc(NC(=S)OC(C)C)ccc1Cl	IIIB	RT-Y181C	CEM	syncytia	65.5
CC(C)OC(=O)c1cc(NC(=S)SC(C)C)ccc1Cl		RT-V106A	CEM	syncytia	>1.54
COc1ccc(-n2c(SCC(=O)Nc3ccc(S(N)(=O)=O)cc3Cl)nnc2C(F)(F)F)c2ccccc12	NL4-3	RT-Y188L	HeLa + HeLa-JC53	luciferase	35
CC(C)OC(=O)c1cc(NC(=S)OCC2CC2)ccc1Cl		RT-V106A	CEM	syncytia	78.6
CCc1cc(C#N)cc(C(=O)c2cc(Cl)ccc2OCC(=O)Nc2ccc(S(N)(=O)=O)cc2C)c1	HXB2	RT-V108I Y181C	HeLa + HELA CD4+	β-galactosidase	~1
CCCOC(=S)Nc1ccc(Cl)c(C(=O)OC(C)C)c1		RT-V106A	CEM	syncytia	110
CC(C)CN(C[C@@H](O)[C@H](Cc1ccccc1)NC(=O)O[C@H]1CO[C@H]2OCC[C@H]21)S(=O)(=O)c1ccc2nc(N)oc2c1	LAI	PR-L010F M046I M071V I084V	MT-4	cytopathic effect / MTT	0.51
CCCCOC(=O)c1cc(NC(=S)OC(C)C)ccc1Cl		RT-V106A	CEM	syncytia	17.5
C=C(Cl)COc1cc(NC(=S)c2ccoc2C)ccc1C	HEPT-resistant (RT Y188H)	RT-Y188H	CEM	syncytia	22.2
CC(C)=CCOc1cc(NC(=S)c2ccoc2C)ccc1Cl	IIIB	RT-K103N	CEM	syncytia	7.7

5 of the rows above, restated:

smiles | strain or isolate | mutations | cell line | method | value
Cc1occc1C(=S)Nc1ccc(Cl)c(C(=O)OCC2CC2)c1 | NL4-3 | RT-V106A | CEM + CEM-SS | cytopathic effect / XTT | 22
CCOC(=O)COc1cc(NC(=S)OC(C)C)ccc1Cl |  | RT-L100I | CEM | syncytia | 12.8
Cc1cc(C)cc(Sc2c(C(C)C)c(=O)[nH]c(=S)n2COCCO)c1 | IIIB | RT-Y181I | CEM | syncytia | 1670
CC(C)OC(=O)c1cc(NC(=S)OC(C)(C)C)ccc1Cl |  | RT-E138K | CEM | syncytia | 9.16
Cc1ccc(C2CC2)c(-c2cc(F)c3c(c2C)CCCO3)c1[C@H](OC1CC1)C(=O)O | NL4-3 | INSTI-resistant (IN-N155H) | MT-4 | luminescence | 1